Measurements from patent US20260242416A1, “ANTIMICROBIAL PEPTIDES” (priority 2023, published 2026).
Where a SMILES comes first, the peptide text is derived from it.

Test system: microbial cells over eukaryotic cells
Assay: Selectivity index (ratio of the toxicity to the MIC)
Conditions: range of selectivity indices, N/O = no observed antimicrobial activity; for Selectivity Index S. aureus: S. aureus (third of three slash-separated values); for Selectivity Index E. coli: E. coli (first of three slash-separated values); for Selectivity Index S. Enteritidis: S. Enteritidis (second of three slash-separated values)

## CC[C@H](C)[C@H](NC(=O)CNC(=O)[C@H](CO)NC(=O)[C@@H](NC(=O)[C@H](CC(C)C)NC(=O)CN)[C@@H](C)CC)C(=O)N[C@@H](CC(C)C)C(=O)NCC(=O)N[C@@H](C)C(=O)NCC(=O)N[C@@H](CCCCN)C(=O)N[C@@H](CCCCN)C(=O)N[C@H](C(=O)N[C@@H](CC(C)C)C(=O)N[C@@H](CS)C(=O)NCC(=O)N[C@@H](CC(C)C)C(=O)N[C@@H](CO)C(=O)NCC(=O)N[C@@H](CC(C)C)C(=O)N[C@@H](CS)C(=O)O)C(C)C [OdMa10] (H-GLISGILGAGKKVLCGLSGLC-OH; N-terminus and C-terminus assumed)
  Selectivity Index S. aureus: N/O

## CC[C@H](C)[C@H](NC(=O)CNC(=O)[C@H](CCCNC(=N)N)NC(=O)[C@H](CC(C)C)NC(=O)[C@H](CC(C)C)NC(=O)CN)C(=O)N[C@@H](CC(C)C)C(=O)NCC(=O)N[C@@H](C)C(=O)NCC(=O)N[C@@H](CCCCN)C(=O)N[C@@H](CCCCN)C(=O)N[C@H](C(=O)N[C@H](C(=O)N[C@@H](CS)C(=O)NCC(=O)N[C@@H](CC(C)C)C(=O)N[C@@H](CO)C(=O)NCC(=O)N[C@@H](CC(C)C)C(=O)N[C@@H](CS)C(=O)O)C(C)C)[C@@H](C)CC [OdMa2] (H-GLLRGILGAGKKIVCGLSGLC-OH; N-terminus and C-terminus assumed)
  Selectivity Index E. coli: 32
  Selectivity Index S. Enteritidis: 16- 32
  Selectivity Index S. aureus: 8- 16

## CC[C@H](C)[C@H](NC(=O)CN)C(=O)N[C@@H](CC(C)C)C(=O)N[C@@H](CO)C(=O)NCC(=O)N[C@@H](CC(C)C)C(=O)N[C@@H](CC(C)C)C(=O)NCC(=O)N[C@@H](C)C(=O)NCC(=O)N[C@@H](CCCCN)C(=O)N[C@@H](CCCCN)C(=O)N[C@H](C(=O)N[C@H](C(=O)N[C@@H](CS)C(=O)NCC(=O)N[C@@H](CC(C)C)C(=O)N[C@@H](CO)C(=O)NCC(=O)N[C@@H](CCSC)C(=O)N[C@@H](CS)C(=O)O)C(C)C)[C@@H](C)CC [RaOm2] (H-GILSGLLGAGKKIVCGLSGMC-OH; N-terminus and C-terminus assumed)
  Selectivity Index S. Enteritidis: N/O
  Selectivity Index S. aureus: N/O

## CC[C@H](C)[C@H](NC(=O)[C@H](CC(C)C)NC(=O)[C@H](CCCCN)NC(=O)[C@H](CC(C)C)NC(=O)CNC(=O)CNC(=O)[C@H](CCCCN)NC(=O)[C@@H](NC(=O)[C@H](CC(C)C)NC(=O)[C@H](CCCCN)NC(=O)CNC(=O)[C@@H](NC(=O)[C@H](CC(C)C)NC(=O)CN)C(C)C)C(C)C)C(=O)NCC(=O)N[C@@H](Cc1c[nH]cn1)C(=O)N[C@H](C(=O)N[C@@H](C)C(=O)N[C@@H](CC(N)=O)C(=O)NCC(=O)O)C(C)C [RaSi1] (H-GLVGKLVKGGLKLIGHVANG-OH; N-terminus and C-terminus assumed)
  Selectivity Index S. aureus: N/O

## CC[C@H](C)[C@H](NC(=O)[C@H](CCCNC(=N)N)NC(=O)[C@H](CCCNC(=N)N)NC(=O)[C@@H]1CCCN1C(=O)[C@H](CS)NC(=O)[C@H](CS)NC(=O)[C@H](Cc1ccc(O)cc1)NC(=O)[C@H](CS)NC(=O)[C@H](CC(C)C)NC(=O)[C@@H](NC(=O)[C@H](CCCNC(=N)N)NC(=O)[C@@H](NC(=O)[C@H](Cc1ccccc1)NC(=O)[C@H](C)N)C(C)C)[C@@H](C)CC)C(=O)N[C@@H](CCCCN)C(=O)N[C@@H](CCCNC(=N)N)C(=O)N[C@@H](CCCNC(=N)N)C(=O)O [TeRu2, AFVRILCYCCPRRIKRR] (H-AFVRILCYCCPRRIKRR-OH; N-terminus and C-terminus assumed)
  Selectivity Index S. Enteritidis: N/O

## CC[C@H](C)[C@H](NC(=O)[C@@H]1CCCN1C(=O)[C@H](CS)NC(=O)[C@H](C)NC(=O)[C@@H](N)Cc1ccccc1)C(=O)NCC(=O)N[C@@H](Cc1ccccc1)C(=O)N[C@@H](Cc1ccccc1)C(=O)N[C@@H](CCCNC(=N)N)C(=O)N[C@@H](CC(C)C)C(=O)N[C@@H](CCCCN)C(=O)N[C@@H](CCCNC(=N)N)C(=O)O [CaCa1, FACPIGFFRLKR] (H-FACPIGFFRLKR-OH; N-terminus and C-terminus assumed)
  Selectivity Index E. coli: > 1
  Selectivity Index S. Enteritidis: N/O
  Selectivity Index S. aureus: N/O

## CC[C@H](C)[C@H](NC(=O)CN)C(=O)N[C@@H](CC(C)C)C(=O)N[C@@H](CCCNC(=N)N)C(=O)N[C@@H](CO)C(=O)N[C@@H](CC(C)C)C(=O)NCC(=O)N[C@@H](Cc1c[nH]c2ccccc12)C(=O)N[C@H](C(=O)N[C@@H](CCC(N)=O)C(=O)N[C@@H](CCSC)C(=O)N1CCC[C@H]1C(=O)N[C@@H](CCCNC(=N)N)C(=O)N[C@@H](CO)C(=O)N[C@@H](CCCNC(=N)N)C(=O)N[C@@H](CCCNC(=N)N)C(=O)N[C@@H](CCCNC(=N)N)C(=O)N[C@@H](Cc1c[nH]cn1)C(=O)N[C@@H](CCCNC(=N)N)C(=O)O)[C@@H](C)CC [AnFI2, GILRSLGWIQMPRSRRRHR] (H-GILRSLGWIQMPRSRRRHR-OH; N-terminus and C-terminus assumed)
  Selectivity Index E. coli: 16-32
  Selectivity Index S. Enteritidis: 128
  Selectivity Index S. aureus: > 128

## CC(C)C[C@H](NC(=O)[C@@H](NC(=O)[C@H](Cc1ccccc1)NC(=O)[C@H](C)NC(=O)CN)C(C)C)C(=O)N[C@@H](Cc1c[nH]c2ccccc12)C(=O)NCC(=O)N1CCC[C@H]1C(=O)N[C@H](C(=O)N1CCC[C@H]1C(=O)N[C@@H](CCCNC(=N)N)C(=O)N1CCC[C@H]1C(=O)N[C@@H](CCCNC(=N)N)C(=O)N[C@@H](CCCNC(=N)N)C(=O)N[C@@H](CCCNC(=N)N)C(=O)O)[C@@H](C)O [DiLo1, GAFVLWGPTPRPRRR] (H-GAFVLWGPTPRPRRR-OH; N-terminus and C-terminus assumed)
  Selectivity Index E. coli: > 1
  Selectivity Index S. Enteritidis: N/O
  Selectivity Index S. aureus: N/O

## CC[C@H](C)[C@H](NC(=O)CNC(=O)[C@H](CO)NC(=O)[C@@H](NC(=O)[C@H](CC(C)C)NC(=O)CN)[C@@H](C)CC)C(=O)N[C@@H](CC(C)C)C(=O)NCC(=O)N[C@@H](C)C(=O)NCC(=O)N[C@@H](CCCCN)C(=O)N[C@@H](CCCCN)C(=O)N[C@H](C(=O)N[C@@H](CC(C)C)C(=O)N[C@@H](CS)C(=O)O)C(C)C [OdMa9, GLISGILGAGKKVLC] (H-GLISGILGAGKKVLC-OH; N-terminus and C-terminus assumed)
  Selectivity Index S. Enteritidis: N/O

## CC[C@H](C)[C@H](NC(=O)CN)C(=O)N[C@@H](Cc1ccccc1)C(=O)NCC(=O)NCC(=O)N[C@@H](Cc1c[nH]cn1)C(=O)N[C@@H](CC(C)C)C(=O)N[C@@H](CCCCN)C(=O)N[C@H](C(=O)NCC(=O)N[C@@H](CCCCN)C(=O)N[C@@H](CCCCN)C(=O)N[C@H](C(=O)N[C@@H](C)C(=O)N[C@@H](CS)C(=O)NCC(=O)N[C@@H](CC(C)C)C(=O)N[C@@H](CO)C(=O)NCC(=O)N[C@@H](CC(C)C)C(=O)N[C@@H](CS)C(=O)O)[C@@H](C)CC)C(C)C [OdTo2] (H-GIFGGHLKVGKKIACGLSGLC-OH; N-terminus and C-terminus assumed)
  Selectivity Index E. coli: > 4
  Selectivity Index S. Enteritidis: N/O
  Selectivity Index S. aureus: N/O

## CC[C@H](C)[C@H](NC(=O)CN)C(=O)N[C@@H](CC(C)C)C(=O)N[C@@H](CO)C(=O)NCC(=O)N[C@@H](CC(C)C)C(=O)N[C@@H](CC(C)C)C(=O)NCC(=O)N[C@@H](C)C(=O)NCC(=O)N[C@@H](CCCCN)C(=O)N[C@@H](CCCCN)C(=O)N[C@H](C(=O)N[C@H](C(=O)N[C@@H](CS)C(=O)O)C(C)C)[C@@H](C)CC [OdMa4, GILSGLLGAGKKIVC] (H-GILSGLLGAGKKIVC-OH; N-terminus and C-terminus assumed)
  Selectivity Index S. Enteritidis: N/O

## CC[C@H](C)[C@H](NC(=O)[C@H](CCCCN)NC(=O)[C@@H](N)CCCNC(=N)N)C(=O)N[C@H](C(=O)N[C@@H](C)C(=O)N[C@H](C(=O)N[C@@H](CO)C(=O)N[C@H](C(=O)N[C@@H](Cc1c[nH]cn1)C(=O)N[C@@H](CCCCN)C(=O)N[C@@H](CC(C)C)C(=O)N[C@@H](CS)C(=O)N[C@@H](CCCNC(=N)N)C(=O)N[C@H](C(=O)N[C@@H](CCCCN)C(=O)N[C@@H](CCCNC(=N)N)C(=O)O)C(C)C)C(C)C)C(C)C)[C@@H](C)CC [BoUs1, RKIIAVSVHKLCRVKR] (H-RKIIAVSVHKLCRVKR-OH; N-terminus and C-terminus assumed)
  Selectivity Index S. Enteritidis: N/O

## CC[C@H](C)[C@H](NC(=O)CN)C(=O)N[C@@H](Cc1ccccc1)C(=O)NCC(=O)NCC(=O)N[C@@H](CC(C)C)C(=O)N[C@@H](CC(C)C)C(=O)N[C@@H](CCCCN)C(=O)N[C@@H](CCC(=O)O)C(=O)NCC(=O)N[C@@H](CCCCN)C(=O)N[C@@H](CCCCN)C(=O)N[C@H](C(=O)N[C@@H](C)C(=O)N[C@@H](CS)C(=O)NCC(=O)N[C@@H](CC(C)C)C(=O)N[C@@H](CO)C(=O)NCC(=O)N[C@@H](CC(C)C)C(=O)N[C@@H](CS)C(=O)O)[C@@H](C)CC [OdTo3] (H-GIFGGLLKEGKKIACGLSGLC-OH; N-terminus and C-terminus assumed)
  Selectivity Index S. Enteritidis: N/O
  Selectivity Index S. aureus: N/O

## CC[C@H](C)[C@H](NC(=O)CN)C(=O)N[C@@H](CC(C)C)C(=O)N[C@@H](CO)C(=O)NCC(=O)N[C@@H](CC(C)C)C(=O)N[C@@H](CC(C)C)C(=O)NCC(=O)N[C@@H](C)C(=O)NCC(=O)N[C@@H](CCCCN)C(=O)N[C@@H](CCCCN)C(=O)N[C@H](C(=O)N[C@H](C(=O)N[C@@H](CS)C(=O)NCC(=O)N[C@@H](CC(C)C)C(=O)N[C@@H](CO)C(=O)NCC(=O)N[C@@H](CC(C)C)C(=O)N[C@@H](CS)C(=O)O)C(C)C)[C@@H](C)CC [OdMa5] (H-GILSGLLGAGKKIVCGLSGLC-OH; N-terminus and C-terminus assumed)
  Selectivity Index E. coli: 8- 16
  Selectivity Index S. Enteritidis: 8- 16
  Selectivity Index S. aureus: 1- 2
